Data taken from article PMC6271975, “Structure-Activity Relationship Study of Sesquiterpene Lactones and Their Semi-Synthetic Amino Derivatives as Potential Antitrypanosomal Products” (Molecules, 2014).

Test system: T. b. rhodesiense STIB 900 bloodstream forms
Assay: In vitro antitrypanosomal Alamar Blue assay
Type: cell-based, Trypanosoma brucei rhodesiense
Settings: IC50 against L6 cells divided by IC50 against STIB 900 strain

SMILES: C=C1C(=O)O[C@@H]2/C=C(/C)[C@@H](O)C/C=C(\C)C[C@H](OC(=O)/C(C)=C\C)[C@@H]12 [Compound 14, Nobilin]
- SI (Selectivity Index): 3.4
